Experimental findings from PubChem BioAssay (NCATS) are described below.

Molecules are shown by their SMILES. The entries are a selection whose mix differs from that of the whole data set. Records with an inconclusive call do not appear. For some assays here: Potency and affinity values are given separately. Calls of active or inactive are those of the source.

For experiment [1] the following is noted: Ebola virus entry assay, green fluorescence channel.
The conditions of experiment [2]: Ebola virus entry assay, blue channel fluorescence.
The conditions of experiment [3]: Ebola virus entry assay, ratio channel.
For experiment [4] the following is noted: Ebola virus entry assay, green channel fluorescence.
For experiment [5] the following is noted: Ebola virus entry assay, reporter ratio channel; Channel type: primary.
For experiment [6] the following is noted: Ebola virus entry assay, blue channel (ratio component).
Experiment [7] in a line: qHTS assay for measurement of the activity of small molecule inhibitors on Zika virus induced Caspase-3 activity in human iPSC derived neural progenitor cells (hNPCs) (AID 1224857). Further: % of control where 0% means no effect; nearly all actives have a fitted effect of over 65% in size. To be noted: hNPCs ZIKV-induced caspase-3/7, Caspase-Glo luminescence, 6 h; at 45.7 µM (top of the series). The procedure, abridged: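 Percent inhibition of virus-induced caspase-3/7 luminescence (Caspase-Glo), scaled between uninfected cells and Zika-infected cells. hNPCs received compound 1 hr before ZIKV at 2 FFU/cell, with 6 hours infection at 37 C.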

Experiment [8] can be described thus: qHTS assay for measurement of the activity of small molecule inhibitors on Zika virus induced Caspase-3 activity in human astrocytoma cells (AID 1224859).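 Further: plate controls were ZIKV-infected untreated cells for no effect and uninfected cells for full effect.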 To be noted: SNB-19 ZIKV-induced caspase-3/7, luminescence, 6 h; at 45.7 µM (top of the series). The procedure, abridged: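 Luminescent caspase-3/7 read-out (30 min reagent, room temperature) in human SNB-19 cells infected 6 h with ZIKV (2 FFU/cell) after 1 h compound pre-incubation; Data were normalised to uninfected and infected wells.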
For orientation: In qHTS, concentration-response curves come from the screen itself.

A short description of experiment [9]: NS1 protein of Zika virus - qHTS assay to identify small molecule inhibitors in human HEK 293 cells (AID 1347053).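 Further: plate controls were infected untreated cells for no effect and uninfected cells for full effect; nearly all actives have a fitted effect of over 55% in size.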 To be noted: HEK293 ZIKV MR766 infection, NS1 TR-FRET, 24 h; at 46.1 µM (top of the series). Summed up:
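In this cell-based screen, HEK 293 cultures received compound for one hour before Zika MR766 at MOI = 0.5. NS1 was quantified 24 hours later by TR-FRET, normalized to virus-free wells and infected wells.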

Experiment [10] in a line: qHTS for Inhibitors of the Functional Ribonucleoprotein Complex (vRNP) of Lassa (LASV) Arenavirus: LASV Primary Screen - GLuc reporter signal (AID 1347082; calls by dose curve; tested in HEK293 reporter line; further: on the % scale 0 is the no-effect control and ±100 the full control effect; nearly all actives have a fitted effect of over 60% in size). To be noted: LASV minigenome vRNP, Gaussia luciferase reporter; at 57.5 µM (top of the series).
A short description of experiment [11]: qHTS for Inhibitors of the Functional Ribonucleoprotein Complex (vRNP) of Lassa (LASV) Arenavirus: Viability assay - alamar blue signal for LASV Primary Screen (AID 1347083; calls by dose curve; tested in HEK293 reporter line; further: on the % scale 0 is the no-effect control and ±100 the full control effect; nearly all actives have a fitted effect of over 80% in size). To be noted: cell viability, alamar blue fluorescence (LASV minigenome counter-screen); at 57.5 µM (top of the series).
A short description of experiment [12]: qHTS for Inhibitors of the Functional Ribonucleoprotein Complex (vRNP) of Lymphocytic Choriomeningitis Arenaviruses (LCMV): Viability assay - alamar blue signal for LCMV Primary Screen (AID 1347085; calls by dose curve; tested in HEK293 reporter line; further: on the % scale 0 is the no-effect control and ±100 the full control effect; nearly all actives have a fitted effect of over 80% in size). As to conditions: alamar blue viability counter-screen, LCMV vRNP screen cells; at 57.5 µM (top of the series).
In experiment [13] the target is Nucleoprotein (Lymphocytic choriomeningitis virus (strain Armstrong)) (UniProt P09992). The experiment can be described thus: qHTS for Inhibitors of the Functional Ribonucleoprotein Complex (vRNP) of Lymphocytic Choriomeningitis Arenaviruses (LCMV): LCMV Primary Screen - GLuc reporter signal (AID 1347086; calls by dose curve; further: on the % scale 0 is the no-effect control and ±100 the full control effect; nearly all actives have a fitted effect of over 70% in size). To be noted: LCMV minigenome vRNP cell assay, Gaussia luciferase reporter; at 57.5 µM (top of the series).

The subject of experiment [14] is Zika virus NS2B-NS3 protease. The experiment can be described thus: Primary screen GU AMC qHTS for Zika virus inhibitors (AID 1347154).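 Further: 0% = no-inhibitor control and -100% = no-enzyme control; nearly all actives have a fitted effect of over 70% in size.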 As to conditions: Zika NS2B-NS3 unlinked protease, AMC fluorogenic substrate; at 54.1 µM (top of the series). The procedure, abridged: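 Unlinked Zika NS2B hydrophilic domain–NS3 protease complex at 25 nM in 10 mM Tris-HCl pH 8.0, 0.01% Tween 20, with an AMC peptide substrate. Fluorescence change (340/450 nm) over 15 min at room temperature, normalized to controls, fitted to 4-parameter Hill.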

Experiment [15] can be described thus: Primary qHTS for inhibitors of La Crosse Virus (LACV) - induced cell death in SH-SY5Y cells (AID 1508616).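 Further: top concentration of the series differs between compounds; 0% = infected DMSO wells and 100% = uninfected DMSO wells; higher means more rescue of cells from virus-induced death.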 To be noted: SH-SY5Y LACV cytopathicity rescue, ATP luminescence, 6 d; at 4.29 µM (top of the series). The procedure, abridged: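 SH-SY5Y, 6000 cells/well; cpd via pin tool in DMSO; LACV 0.01 MOI; 6 d 37C 5% CO2; ATPLite, 5 min RT; luminescence normalized to ±virus DMSO controls.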

Experiment [16] concerns Zika virus NS2B-NS3 protease (unlinked complex). The experiment can be described thus: Primary screen GU Rhodamine qHTS for Zika virus inhibitors: Unlinked NS2B-NS3 protease assay (AID 1347159). Further: on the % scale 0 is the no-effect control and ±100 the full control effect; nearly all actives have a fitted effect of over 60% in size. As to conditions: Recombinant ZIKV NS2B-NS3 protease, Rhodamine110 substrate fluorescence; at 107 µM (top of the series). The procedure, abridged:
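Buffer 10 mM Tris-HCl pH 8.0, 0.01% Tween 20. Unlinked protease 25 nM; compound preincubation 15 min, RT, protected from light. Substrate Rhod110, 1.5 microM; ~15% conversion in 15 min.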

The test system of experiment [17] is Zika virus NS2B-NS3 protease (linked construct). Briefly: Primary screen NINDS Rhodamine qHTS for Zika virus inhibitors (AID 1347160). Further: on the % scale 0 is the no-effect control and ±100 the full control effect; nearly all actives have a fitted effect of over 55% in size. To be noted: purified NS2B-NS3 protease, Rhodamine110 substrate fluorescence; at 57.1 µM (top of the series). Summed up:
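Aprotinin served as in-plate control. Conditions: 25 nM linked NS2B-NS3, pH 8.0 Tris buffer, titrated compounds, 15 min preincubation and 15 min reaction with 1.5 microM Rhod110 substrate at room temperature.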

A short description of experiment [18]: Confirmatory qHTS for activators (rescue) of SARS-CoV-2 Cytopathic Effect (CPE) (AID 1508606; calls by dose curve; further: potency means the concentration at half of the fitted maximal effect; nearly all actives have a fitted effect of over 70% in size). To be noted: Vero E6 SARS-CoV-2 CPE rescue, viability luminescence.
A short description of experiment [19]: qHTS profiling of the MIPE4 collection as inhibitors of Plasmodium falciparum (3D7) proliferation (AID 743344; call rule not given here;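 further: scaled between DMSO vehicle wells and 0.29 µM artemisinin as full inhibition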). To be noted: P. falciparum 3D7 in erythrocytes, SYBR Green DNA fluorescence, 72 h; at 28.5 µM (top of the series).
The nature of experiment [20]: qHTS profiling of the MIPE4 collection as inhibitors of Plasmodium falciparum (DD2) proliferation (AID 743345; call rule not given here). As to conditions: P. falciparum Dd2 in erythrocytes, SYBR Green DNA, 72 h; at 28.5 µM (top of the series).
Experiment [21] can be described thus: qHTS profiling of the MIPE4 collection as inhibitors of Plasmodium falciparum (DD2) proliferation (Rep 2) (AID 743346; call rule not given here). To be noted: P. falciparum Dd2 in erythrocytes, SYBR Green DNA, 72 h; at 28.5 µM (top of the series).
Experiment [22] is described as follows: qHTS profiling of the MIPE4 collection as inhibitors of Plasmodium falciparum (HB3) proliferation (AID 743347; call rule not given here;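 further: plate controls were DMSO vehicle wells for no effect and artemisinin wells for full effect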). As to conditions: P. falciparum HB3 in erythrocytes, SYBR Green DNA, 72 h; at 28.5 µM (top of the series).
Experiment [23] in a line: Cytotoxicity counterscreen for inhibitors of SARS-CoV-2 cell entry (AID 1645845; calls by dose curve; further: nearly all actives have a fitted effect of over 50% in size). As to conditions: cell viability (SARS-CoV-2 entry assay cells); at 57.1 µM (top of the series). The procedure, abridged: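 Counterscreen run in the same HEK293-ACE2 line as the pseudotyped-particle entry assay, without particles. Viability after 48 h at 37 C was read as ATP luminescence, scaled between cell-containing and cell-free wells.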

Experiment [24] in a line: Primary qHTS to identify inhibitors of SARS-CoV-2 cell entry (AID 1645846; calls by dose curve; further: nearly all actives have a fitted effect of over 45% in size). To be noted: SARS-CoV-2 pseudovirus cell entry assay, luminescence; at 57.1 µM (top of the series). Summed up: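 Inhibition of spike-mediated entry was scored in human ACE2-transfected Expi293F cells. Particles were MLV-pseudotyped with Wuhan-Hu-1 S carrying a 19-aa C-terminal deletion; signal was luciferase after two days, scaled between spike PP and fusion-protein-free PP.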
Wherever efficacy is given: 0% is about no effect.

On to `CCC(=O)N(c1ccccc1)C1CCNCC1`, for which the efficacy in experiment [1] was inactive: 11.1%. In addition, the compound was called inactive in experiment [2], in [3], in [4], in experiment [5] and in [6]. Besides, the activity change, negative = inhibition in experiment [7] is inactive: -0.321%; in experiment [8] it was inactive: 2.25%; in experiment [9], inactive: -1.09%; in experiment [10], inactive: -0.293%; in experiment [13] it was inactive: -2.55%; in experiment [14], inactive: -9.06%. Besides, in experiment [11], the activity change, negative = reduced viability is inactive: -1.32%. In addition, in [12], the activity change, negative = lower viability was inactive: 17.1%. In addition, the activity change in experiment [15] was inactive: -2.5%.
Regarding `CC(=O)N1CCc2ccc(N(C(=O)/C=C/c3cccc(C#N)c3)C3CCN(CCC4CCCC4)CC3)cc21`, the figures for the activity change, negative = inhibition in experiment [16] and in [17] were inactive: 1.78% and inactive: 26.8%, respectively. Moreover, the Potency in [18] was active: 7.08 µM.
Take `CCOC(=O)N1CCC(=O)CC1`: the compound was classed as inactive in [4], in experiment [5] and in experiment [6]. Moreover, the activity change, negative = inhibition in experiment [7] was inactive: 25.8%; in [8], inactive: 6.6%; in experiment [9] it was inactive: -8.38%; in experiment [10], inactive: -0.395%; in experiment [13] it was inactive: 4.26%; in [14], inactive: -4.71%. In [11], the activity change, negative = reduced viability was inactive: -4.51%. For the same compound, the activity change, negative = lower viability in experiment [12] was inactive: -3.2%. Moreover, the activity change in [15] was inactive: -0.583%.
Regarding `CCOC(=O)C(=O)CBr`, the parasite growth, % of DMSO control in experiment [19] came out at 84.5%. The parasite growth remaining, % of DMSO control (lower = more inhibition) in experiment [20] is 101%. In [21], the parasite growth, % of control (lower = inhibition) worked out at 93.2%. The compound further returned a growth, % of control in experiment [22] of 104%. Also, the activity change, negative = inhibition is inactive: 13.5% in experiment [7]; inactive: -11.3% in [8]; inactive: 1.79% in [9]; inactive: -1.91% in experiment [10]; inactive: 6.4% in [13]; inactive: -3.49% in [14]. Besides, in experiment [24], the activity change, negative = inhibition is -29.2%. For the same compound, the activity change, negative = reduced viability in experiment [11] was inactive: 10.7%. For the same compound, the activity change, negative = lower viability in [12] is inactive: -1.6%. In [23], the result was inactive.
